Results of unrelated studies side by side (data: NIAID ChemDB).

All rows: growth or infection tests; organism: Cytomegalovirus; read-out: EC50

Lines come from different laboratories, so protocols vary. ECn: concentration that inhibits the pathogen or its effect by n%. Blank or dashed fields: not listed here. a–b is a range or a potency band.

Nc1nc2c(ncn2COC(CO)CO)c(=O)[nH]1 ; cells: MRC-5 ; strain or isolate: 192 ; result: 6.3 µM
Cc1cc(Sc2ccc(Cl)cc2)c2ncc(CSCCc3ccccc3)n2c1 ; strain or isolate: AD169 ; read by: plaque count ; result: 2.2 µg/mL
CN1c2ccc(Cl)cc2C(C)(C)C12C=Nc1c(ccc3ccccc13)O2 ; cells: HEL ; strain or isolate: AD169 ; read by: plaque count ; result: >44 µM
Nc1nc2c(ncn2[C@@H]2C=C[C@H](CO)CC2)c(=O)[nH]1 ; result: 1–10 µM
Cc1nc(N2CCOC[C@@H]2C)nc(-n2ccnc2)c1[N+](=O)[O-] ; result: 0.07 µM
CC1(C)c2ccccc2N(c2ccccc2)C12C=Nc1c(ccc3ccccc13)O2 ; cells: HEL ; strain or isolate: DAVIS ; read by: plaque count ; result: >40.9 µM
CCCCCCCCc1cc2cn([C@H]3C[C@H](Cl)[C@@H](CO)O3)c(=O)nc2o1 ; cells: HEL ; result: >5 µM
O=C(CCCCCCCCCCC(=O)Nc1cc(S(=O)(=O)O)c2cccc(S(=O)(=O)O)c2c1)Nc1cc(S(=O)(=O)O)c2cccc(S(=O)(=O)O)c2c1 ; cells: MRC-5 ; strain or isolate: AD169 ; read by: plaque count ; result: >100 µM
CC1(C)[C@@H](CCO)C[C@H]1n1nnc2c(N)nc(N)nc21 ; cells: HEL ; strain or isolate: AD169 ; read by: plaque count ; result: >20 µg/mL
C=C[C@H](O)C1=C[C@@H](n2cnc3c(N)ncnc32)[C@H](O)[C@@H]1O ; cells: HEL ; strain or isolate: DAVIS ; read by: cytopathic effect ; result: >50 µg/mL
CC1(C)[C@@H](CCO)C[C@H]1n1nnc2c(=O)[nH]cnc21 ; cells: HEL ; strain or isolate: AD169 ; read by: plaque count ; result: >20 µg/mL
CC1(C)[C@@H](CO)CC[C@@]1(C)Cn1cnc2c(Cl)ncnc21 ; cells: HEL ; strain or isolate: AD169 ; read by: cytopathic effect ; result: >50 µg/mL
CCCCCCCCCCCCCCCCCCOCCOP(=O)(O)CO[C@H](CO)Cn1ccc(N)nc1=O ; strain or isolate: GDGP53 ; result: 0.02 µM
Nc1nc2c(ncn2[C@H]2C=C[C@@H](CO)CC2)c(=O)[nH]1 ; result: 1–10 µM
CC[C@H](O)C1=C[C@@H](n2cnc3c(N)ncnc32)[C@H](O)[C@@H]1O ; cells: HEL ; strain or isolate: DAVIS ; read by: cytopathic effect ; result: >50 µg/mL
CC(C)CS[C@@H]1C=C[C@H](n2cnc3c(N)ncnc32)C1 ; cells: HEL ; strain or isolate: DAVIS ; read by: cytopathic effect ; result: >20 µg/mL
CC(=O)Nc1cc(S(=O)(=O)O)cc2cc(S(=O)(=O)O)cc(O)c12 ; cells: MRC-5 ; strain or isolate: AD169 ; read by: plaque count ; result: >100 µM
Cc1ccc(C)c(C(Cc2ccccc2)S(=O)(=O)c2cccc[n+]2[O-])c1 ; cells: HEL ; read by: cytopathic effect ; result: 6.7 µg/mL
CN1c2ccccc2C(C)(C)C12C=Nc1c(ccc3ccccc13)O2 ; cells: HEL ; strain or isolate: DAVIS ; read by: plaque count ; result: >9.8 µM
COc1cccnc1SCc1cc(C)ccc1C ; cells: HEL ; read by: cytopathic effect ; result: >50 µg/mL
COc1ccc2c(c1)C=CC1(O2)N(C)c2ccccc2C1(C)C ; cells: HEL ; strain or isolate: DAVIS ; read by: plaque count ; result: >10.4 µM
COC(=O)c1cc2ccc3c(c2c(-c2ccc4c(c2)OCO4)c1C(=O)OC)OCO3 ; result: 8.1 µM
O=c1[nH]c(=O)n([C@H]2C[C@H](Cl)[C@@H](CO)O2)cc1I ; cells: HEL ; result: >5 µM
O=C1O/C(=C\Cn2ccc(=O)[nH]c2=O)C(OCc2ccccc2)=C1O ; cells: HEL ; result: >50 µg/mL
CCCCCCCCc1cc2cn([C@H]3C[C@H](O)[C@@H](CCl)O3)c(=O)nc2o1 ; cells: HEL ; result: >5 µM
O=S(=O)(O)c1cc(NS(=O)(=O)c2ccc(-c3ccc(S(=O)(=O)Nc4cc(S(=O)(=O)O)c5cccc(S(=O)(=O)O)c5c4)cc3)cc2)cc2c(S(=O)(=O)O)cccc12 ; cells: MRC-5 ; strain or isolate: AD169 ; read by: plaque count ; result: 42 µM
Cc1cn([C@H]2C[C@H](O[Si](C)(C)C(C)(C)C)[C@@H](/C=C\C#N)O2)c(=O)[nH]c1=O ; cells: HeLa ; strain or isolate: DAVIS ; result: 10–20 µM
CC1(C)[C@@H](CO)CC[C@@]1(C)Cn1cc(I)c(=O)[nH]c1=O ; cells: HEL ; strain or isolate: DAVIS ; read by: cytopathic effect ; result: >50 µg/mL
Nc1ncnc2c1ncn2[C@@H]1C=C(CO)[C@@H](O)[C@H]1O ; cells: HEL ; strain or isolate: AD169 ; read by: cytopathic effect ; result: 0.3 µg/mL
O=C1OC(C(O)Cn2ccc(=O)[nH]c2=O)C(OCc2ccccc2)=C1OCc1ccccc1 ; cells: HEL ; result: >50 µg/mL
CCCCCCCCCCCCCCCC(=O)Nc1cc(S(=O)(=O)O)cc2cc(S(=O)(=O)O)cc(O)c12 ; cells: MRC-5 ; strain or isolate: AD169 ; read by: plaque count ; result: 33 µM
CC1(C)[C@@H](CO)CC[C@@]1(C)Cn1nnc2c(=O)[nH]cnc21 ; cells: HEL ; strain or isolate: DAVIS ; read by: cytopathic effect ; result: >50 µg/mL
CCC[C@]1(CC(=O)O)OCCc2c1[nH]c1c(C)ccc(C#N)c21 ; cells: VERO ; strain or isolate: AD169 ; read by: ELISA ; result: >100 µM
O=S(Cc1cccc(C(F)(F)F)c1)c1cccc[n+]1[O-] ; cells: HEL ; read by: cytopathic effect ; result: >50 µg/mL
CC1(C)[C@@H](CO)CC[C@@]1(C)Cn1nnc2c(N)ncnc21 ; cells: HEL ; strain or isolate: AD169 ; read by: cytopathic effect ; result: >50 µg/mL
CC1(C)[C@@H](CCO)C[C@H]1n1cnc2c(=O)[nH]cnc21 ; cells: HEL ; strain or isolate: DAVIS ; read by: plaque count ; result: >50 µg/mL
O=S(=O)(Cc1ccc(F)cc1)c1cccc[n+]1[O-] ; cells: HEL ; read by: cytopathic effect ; result: >20 µg/mL
O=C1O/C(=C\Cn2cc(C(F)(F)F)c(=O)[nH]c2=O)C(O)=C1O ; cells: HEL ; result: >50 µg/mL
CC1(C)[C@@H](CCO)C[C@H]1n1nnc2c(N)ncnc21 ; cells: HEL ; strain or isolate: AD169 ; read by: plaque count ; result: >20 µg/mL

5 of the rows above, restated:

SMILES	cells	strain or isolate	read by	result
COc1ccc2c(c1)C=CC1(O2)N(C)c2ccccc2C1(C)C	HEL	DAVIS	plaque count	>10.4 µM
O=S(=O)(Cc1ccc(F)cc1)c1cccc[n+]1[O-]	HEL	-	cytopathic effect	>20 µg/mL
CCCCCCCCCCCCCCCCCCOCCOP(=O)(O)CO[C@H](CO)Cn1ccc(N)nc1=O	-	GDGP53	-	0.02 µM
CC1(C)c2ccccc2N(c2ccccc2)C12C=Nc1c(ccc3ccccc13)O2	HEL	DAVIS	plaque count	>40.9 µM
CCCCCCCCCCCCCCCC(=O)Nc1cc(S(=O)(=O)O)cc2cc(S(=O)(=O)O)cc(O)c12	MRC-5	AD169	plaque count	33 µM